For at least one entry, the source does not settle the construct or the ends of the probe.
How the values were obtained:
[1] = tested on: RNA polymerase holoenzyme (sigma-saturated) (Escherichia coli); assay: DNase I footprinting; settings: footprint: 20 mM Tris-Cl pH 8.0, 50 mM KCl, 1 mM DTT, 5% glycerol, 100 ug/ml BSA, room temperature; commercial protein; label: FAM (3' end per Supplementary Fig 2 legend); probe letters rebuilt from the primers and the genome
[2] = tested on: RNA polymerase holoenzyme (sigma-saturated) (Escherichia coli); assay: EMSA; settings: 0.05-0.2 U RNAP; EMSA: 20 mM Tris-HCl pH 8.0, 10 mM NaCl, 1 mM EDTA, 1 mM DTT, 1 ug salmon sperm DNA, 3 ug BSA in 20 ul, 1.0 nM DNA, 30 C, 20 min; commercial protein; label: FAM; probe letters rebuilt from the primers and the genome

ATGCTGAGAATGACGACCCGGGTCACGTTCTCTTAACGTCGAGGCGACGAACTTGAATCAATAGGCCAACGCCGTCAAAAAAATGGCGTGTTGTGCCTTGCGATGTGTTCGTTCTATGCCATAGTGCACTGCAACACGCGATTCAATGTTGGTCCCGGCACGTGTCGGGATGCAACTTCCTGTCGTACGTTCGTGCTGGCGCCTGAGCCGGTTGAATGCTGCGCGAGGTCCTGTCCCACCCAACAGAGGCAGCCAGCTACACGCATGAAGAAACTGATCGGACGACTCTGCCAAGGCCTCAGCCTGGCTCTGCTCTGCTCGATGTCGCTG (double strand) [gumB promoter 330 bp]
binding result [1]: binds

CATCGAGCAGAGCAGAGCCAGGCTGAGGCCTTGGCAGAGTCGTCCGATCAGTTTCTTCATGCGTGTAGCTGGCTGCCTCTGTTGGGTGGGACAGGACCTCGCGCAGCATTCAACCGGCTCAGGCGCCAGCACGAACGTACGACAGGAAGTTGCATCCCGACACGTGCCGGGACCAACATTGAATCGCGTGTTGCAGTGCACTATGGCATAGAACGAACACATCGCAAGGCACAACACGCCATTTTTTTGACGGCGTTGGCCTATTGATTCAAGTTCGTCGCCTCGACGTTAAGAGAACGTGACCCGGGTCGTCATTCTCAGCATACGAACTCTAGCGTTTCCGGGCACTTACGGACGCCTACCGATCTCGACATGTAGCAGCCTGAACCGCAAAATAATTGCGCACAGGACTTGCATATGCCGCCTTGCAATATGCCGTTGCGCATAGTGACATAGCTTGGAATGCCATCGAACTGACATGTTGCGACGCAACAAAAAGGCCCACGTCTTGCGACATGGGCCTGTTGTT (double strand) [gumB promoter 529 bp]
binding result [2]: binds

— publication PMC4730234
